How the values were obtained:
[1] = target: SARS-CoV-2 spike (S) protein, Omicron sublineage BA.2.75.2 (SARS-CoV-2); assay: cell-based or functional assay
[2] = target: SARS-CoV-2 spike (S) protein, Omicron sublineage XBB (SARS-CoV-2); assay: cell-based or functional assay

B1: A46 + E12 + B8 + E8 (other)
VH 1: QVQLVESGGGVVQPGRSLRLSCAASGFTLSSYGMHWVRQAPGKGLEWVAVISYDGSNKYYVDSVKGRFTISRDNSKNTLYLQMNSLRAEDTAVYYCRWAYWELLPDYYYGMDVWGQGTTVTVSS
VL 1: QTVVTQEPSFSVSPGGTVTLTCGLSSGSVSTAYFPSWYQQTPGQAPRTLIYGTNTRSSGVPDRFSGSILGNKAALTITGAQADDESDYYCVLYMGRGIVVFGGGTKLTVL
VH 2: EVQLVESGGGLIQPGGSLRLSCAASGVIVSYNYMNWVRQAPGKGLEWVSVIYSGGSTFYADSVRGRFTISRDNSKNTLYLQMNSLRAEDTAVYYCARDLGPAGAFDIWGLGTMVTVSS
VL 2: EIVLTQSPGTLSLSPGETATLSCRASQSFSSDLAWYQQKPGQAPRLLIYGASSRATGIPDRFSGSGSGTDFTLTISRLEPADFAVYYCQQYGSSPPVTFGGGTKVEIK
VH 3: EVQLVESGGALIQPGGSLRLSCAASGIIVSANYMSWVRQAPGKGLEWVSVIYSGGSTFYADSVKGRFTISRDNSKNTLYLEMNSLRAEDTAVYYCARDAPILGVSDWGQGTLVTVSS
VL 3: EIVMTQSPAILSVSPGERATLSCRASQSVAINLAWYQQKPGQAPRLLIYAASSRATGIPGRFSGSGSETNFTLTISSLQSGDFAVYYCQQYITWPPSYTFGQGTKLEIK
VH 4: QVTLRESGPALVKPTQTLTLTCTFSGFSLSTRGVCVSWIRQPPGKALEWLAFIDWDDDKYYNTSLKTRLTISKDTSKNQVVLTMTNVHPVDTATYYCARISSHHGSSWCTTFDYWGQGALVTVSA
VL 4: DTVMTQSPLSLPVTPGEPASISCRSSQSLLNSNGYNYLDWYVQKPGQSPQLLIYLGSNRASGVPDRFSGSGSGTDFTLKISRVEAEDVGVYYCMQPLQTPLFTFGPGTKVEIK
With B1 the “IC80, pseudovirus neutralization” value [1] was 6.93 nM, the “IC50, pseudovirus neutralization” value [2] was 5.95 nM and the “IC80, pseudovirus neutralization” value [2] was 16.6 nM.

— patent publication US20240109955A1 (published 2024)
